# Patent publication US10889573B2, “Anthelmintic quinoline-3-carboxamide derivatives” (Bayer Animal Health GMBH, priority 2016, dated 2021)
# Tested on: Cooperia curticei
# Assay: In vitro assay 6: Cooperia curticei (COOPCU L3), larval mortality
# Conditions: 0.8 ppm, after 5 days
smiles,measurement,value
O=C(N[C@H]1CCOc2ccccc21)c1cnc2c(-c3cc(F)cc(F)c3F)c(F)ccc2c1N1CCOCC1 [Example 540],activity (larval mortality),80%
